Pooled drug test results. Numbers come from NIAID ChemDB, via PubChem.

Common to all: toxicity to cultured cells; cells: PBMC; measure: CC50

CCn: concentration that lowers growth or viability of the cells by n%.

compound | read by | value
O=c1[nH]c(=O)n([C@@H]2O[C@H](CO)[C@@H](O)[C@@H]2F)cc1C12B3B4B5B6B(B3B1B42)B1B5C61 | - | ≥100 µM
O=c1[nH]c(=O)n([C@H]2C=C[C@@H](CO)O2)cc1F | - | 32.2 µM
Cc1cn([C@H]2C[C@H](N=[N+]=[N-])[C@@H](CO)O2)c(=O)[nH]c1=O | - | >100 µM
Nc1nc(NC2CC2)c2ncn([C@H]3C=C[C@@H](CO)C3)c2n1 | MTT | >4 µM
CC(C)OC(=O)CCc1ccccc1O[P@@](=O)(N[C@@H](C)C(=O)OC(C)C)OC[C@H]1O[C@@H](n2cnc3c(N)nc(N)nc32)[C@](C)(O)[C@@H]1O | - | >100 µM
Nc1ncnc2c([C@H]3CC[C@](CCP(=O)(O)O)(C(F)(F)F)C3)c[nH]c12 | MTT | >100 µM
Nc1nc(=O)n([C@H]2C=C[C@@H](CO)O2)cc1F | - | >100 µM
CCOC(=O)CCc1ccccc1OP(=O)(N[C@@H](C)C(=O)OC(C)C)OC[C@H]1O[C@@H](n2cnc3c(N)nc(N)nc32)[C@](C)(O)[C@@H]1O | - | >100 µM
CC[C@H](C)[C@H](NC(=O)C(=O)OC[C@H]1O[C@@H](n2cc(C)c(=O)[nH]c2=O)C[C@@H]1N=[N+]=[N-])C(=O)O | sulforhodamine | 400 µM
Nc1ncnc2c1ncn2[C@H]1C[C@@](F)(CC(F)(F)P(=O)(O)O)CO1 | - | 95 µM
Cc1cn([C@H]2C[C@H](N=[N+]=[N-])[C@@H](CO)O2)c(=O)[nH]c1=O | - | >100 µM
CCOP(=O)(OCC)C(F)(F)C[C@@]1(F)CO[C@H](n2cc(C)c(=O)[nH]c2=O)C1 | - | >100 µM
CCOC(=O)[C@H](C)NP(=O)(OC[C@H]1O[C@@H](n2cnc3c(N)nc(N)nc32)[C@](C)(O)[C@@H]1O)Oc1ccccc1CCC(=O)OC(C)C | - | >100 µM
Cc1cn([C@H]2C[C@H](N=[N+]=[N-])[C@@H](CO)O2)c(=O)[nH]c1=O | trypan blue | >100 µM
COc1c(C)c2c(c(O)c1C/C=C(\C)CCC(=O)O)C(=O)OC2 | MTT | >0.5 µM
CC(=O)OC[C@@H]1C=C[C@H](n2cc(F)c(N)nc2=O)O1 | MTT | >100 µM
COC(=O)C(CO)N=Cc1c(O)c(O)c(C(C)C)c2cc(C)c(-c3c(C)cc4c(C(C)C)c(O)c(O)c(C=NC(CO)C(=O)OC)c4c3O)c(O)c12 | - | 35 µM
Cc1cn([C@H]2C[C@@H](CO)[C@@H](CO)O2)c(=O)[nH]c1=O | trypan blue | >100 µM
Nc1ncnc2c([C@H]3CC[C@](CO)(C(F)(F)F)C3)c[nH]c12 | MTT | >100 µM
Cc1cc2c(C(C)C)c(O)c(O)c(C=NCCO)c2c(O)c1-c1c(C)cc2c(C(C)C)c(O)c(O)c(C=NCCO)c2c1O | - | >100 µM
CCCCCc1ccc(C#Cc2cn(C/C=C/C(O)CO)c(=O)[nH]c2=O)cc1 | - | 19.5 µM
CCCCC(=O)OC[C@@H]1C=C[C@H](n2cc(F)c(N)nc2=O)O1 | - | >100 µM
CCOP(=O)(CO[C@H]1C[C@@H](n2cnc3c(N)ncnc32)C(F)(F)C1)OCC | - | >100 µM
O=C(O)P(=O)(O)O | - | >640 µM
Cc1c(O)cccc1C(=O)N[C@@H](CSc1ccccc1)[C@H](O)CN1C[C@H]2CCCC[C@H]2C[C@H]1C(=O)NC(C)(C)C | tetrazolium | 3.5 µM
CCCCCCCCc1cc2cn(CC=C(CO)CO)c(=O)nc2o1 | - | 91 µM
CCCCCCCCCCCCCC(=O)OC[C@@H]1O[C@H](n2cc(F)c(N)nc2=O)CS1 | MTT | >6.561 µM
Cc1cn([C@H]2C[C@H](N=[N+]=[N-])[C@@H](CO)O2)c(=O)[nH]c1=O | - | >100 µM
CCC(=O)c1ccc(F)c([C@H]2C[C@H]2NC(=O)Nc2ccc(Br)cn2)c1O | - | 61 µM
Nc1ncnc2c1ncn2C1OC(CO)C=C1F | - | >100 µM
COC(=O)[C@H](C)NP(=O)(OCC1C/C1=C/n1cnc2c(N)ncnc21)Oc1ccccc1 | - | 0.35 µM
COc1cccc2c1N(C(=O)OC(C)C)C(CSC)C(=S)N2 | - | 59 µM
CSC[C@H](NC(=O)COc1cccc2ccccc12)C(=O)N[C@@H](Cc1ccccc1)[C@H](O)C(=O)N1CSC(C)(C)[C@H]1C(=O)NC(C)(C)C | - | 8 µM
Cc1cn([C@H]2C[C@H](N=[N+]=[N-])[C@@H](CO)O2)c(=O)[nH]c1=O | - | >100 µM
CCCCCc1ccc(-c2cc3cn(COCCO)c(=O)nc3o2)cc1 | - | >100 µM
Cc1cn([C@H]2C[C@H](N=[N+]=[N-])[C@@H](CO)O2)c(=O)[nH]c1=O | tetrazolium | 95.6 µM
c1cc(CN2CCCNCCNCCCNCC2)ccc1CN1CCCNCCNCCCNCC1 | - | >100 µM
Cc1cc(=O)c2ccc(N=C=S)cc2o1 | MTT | 10.4 µM
CC(C)OC(=O)OCOP(=O)(CO[C@H](C)Cn1cnc2c(N)ncnc21)OCOC(=O)OC(C)C | - | 29 µM
CC1(C)CC[C@]2(C(=O)O)CC[C@]3(C)C(=CC[C@@H]4[C@@]5(C)CC[C@H](O[C@@H]6OC[C@@H](O)[C@H](OC7O[C@H](CO)[C@H](O)[C@H](O)[C@H]7O)[C@H]6O)C(C)(C)[C@@H]5CC[C@]43C)[C@@H]2C1 | MTT | 10.11 µg/mL
Cc1cn([C@H]2C[C@H](N=[N+]=[N-])[C@@H](CO)O2)c(=O)[nH]c1=O | trypan blue | >100 µM
NC(=O)c1cc2c(-c3ccc4c(c3)CCO4)cncc2s1 | MTT | 32.3 µM
Cc1cc2c(C(C)C)c(O)c(O)c(C=O)c2c(O)c1-c1c(C)cc2c(C(C)C)c(O)c(O)c(C=O)c2c1O | - | >100 µM
Cc1cn([C@H]2C[C@H](N=[N+]=[N-])[C@@H](COC(=O)c3ccncc3)O2)c(=O)[nH]c1=O | trypan blue | 10 µM
CCCCCCCCC#Cc1cn(COCCO)c(=O)[nH]c1=O | - | 72.1 µM
NC(=O)CCNC(=O)c1ccccc1SC(=O)c1cccnc1 | XTT | 56.3 µM
C[C@]12CC[C@@H]3c4ccc(O)cc4CC[C@H]3[C@@H]1CC[C@@H]2O | MTS | >0.003 µM
C=C/C=C(\C=C/Cc1c2nc(c(-c3ccc(S(=O)(=O)NCCN(CC)CC)cc3)c3ccc([n-]3)c(C/C=C\C(=C/C=C)S(=O)(=O)NCCN(CC)CC)c3ccc([n-]3)c(-c3ccc(S(=O)(=O)NCCN(CC)CC)cc3)c3nc1C=C3)C=C2)S(=O)(=O)NCCN(CC)CC.[O]=[V+2] | MTT | >50 µM
CSc1c(C)c(SC)n2ccncc12 | - | 54.8 µM
CC(=O)CCCCn1c(=O)c2c(ncn2C)n(C)c1=O | - | >>1000 µM
Nc1nc2c(ncn2[C@@H]2C=C[C@H](CO)O2)c(=O)[nH]1 | - | >100 µM
Cc1cc2c(C(C)C)c(O)c(O)cc2c(O)c1-c1c(C)cc2c(C(C)C)c(O)c(O)cc2c1O | - | >100 µM
Cc1cn([C@H]2C[C@H](N=[N+]=[N-])[C@@H](COC(=O)C(=O)N[C@@H](CC(C)C)C(=O)O)O2)c(=O)[nH]c1=O | sulforhodamine | 300 µM
Nc1nc2c(ncn2[C@@H]2CC[C@H](CO)O2)c(=O)[nH]1 | - | >100 µM
COc1cc(-c2c3nc(c(-c4cc(OC)c(OC)c(OC)c4)c4ccc([n-]4)c(-c4cc(OC)c(OC)c(OC)c4)c4ccc([n-]4)c(-c4cc(OC)c(OC)c(OC)c4)c4nc2C=C4)C=C3)cc(OC)c1OC.[O]=[V+2] | MTT | >50 µM
Cc1cn([C@H]2C[C@@H](CI)[C@@H](CO)O2)c(=O)[nH]c1=O | trypan blue | >100 µM
CCCCCc1ccc(-c2cc3cn(C/C=C/C(O)CO)c(=O)nc3o2)cc1 | - | >100 µM
CC(=O)Oc1c(OC(C)=O)c(C#N)c2c(OC(C)=O)c(-c3c(C)cc4c(C(C)C)c(OC(C)=O)c(OC(C)=O)c(C#N)c4c3OC(C)=O)c(C)cc2c1C(C)C | - | 8.7 µM
CCOP(=O)(OCC)C(F)(F)C[C@@]1(F)CO[C@@H](n2cc(C)c(=O)[nH]c2=O)C1 | - | >100 µM
CC(=O)c1cn(C/C=C/C(O)CO)c(=O)[nH]c1=O | - | >100 µM
CC(C)(C)NC(=O)C1N(C(=O)[C@@H](O)[C@H](Cc2ccccc2)NC(=O)[C@H](CS(C)(=O)=O)NC(=O)COc2cccc3ccccc23)CSC1(C)C | - | 19 µM
CC(=O)O[C@@H]1[C@H](OC(=O)CC(C)C)c2c(ccc3ccc(=O)oc23)OC1(C)C | - | >3.9 µM
Nc1nc2c(ncn2[C@H]2C[C@@](F)(CC(F)(F)P(=O)(O)O)CO2)c(=O)[nH]1 | - | 95 µM
Nc1nncc2c([C@H]3CC[C@@H](/C=C/P(=O)(O)O)C3(F)F)c[nH]c12 | MTT / absorbance | 45 µM
Nc1nc(=O)n([C@H]2C=C[C@@H](CO)O2)cc1F | - | >100 µM
Cn1cc(C(=O)O)c(=O)c2cc(F)c(N3CC=C(c4ccccc4)CC3)c(C(F)(F)F)c21 | - | >4 µM
CC[C@@]1(O)C(=O)OCc2c1cc1n(c2=O)Cc2c-1nc1ccccc1c2CO | MTT | 0.06 µg/mL
Nc1ncnc2c1ncn2[C@@H]1O[C@@H](CO)C=C1F | - | >100 µM
Cc1cn([C@H]2C[C@H](N=[N+]=[N-])[C@@H](COC(=O)C(=O)O)O2)c(=O)[nH]c1=O | sulforhodamine | 300 µM
CC(=O)c1cn(CC=C(CO)CO)c(=O)[nH]c1=O | - | >100 µM
CC[C@H](C)[C@@H](C(=O)O)n1sc2ccccc2c1=O | - | >100 µM
Nc1nncc2c([C@H]3CC[C@@H](CCP(=O)(O)O)C3(F)F)c[nH]c12 | MTT / absorbance | 35 µM
CN1CCNCc2cccc(n2)-c2cccc(n2)CNCC1 | - | >100 µM
CC(C)OC(=O)CCc1ccccc1O[P@](=O)(N[C@@H](C)C(=O)OC(C)C)OC[C@H]1O[C@@H](n2cnc3c(N)nc(N)nc32)[C@](C)(O)[C@@H]1O | - | >100 µM
CC(C)[C@H](NC(=O)c1ccc2ccccc2n1)C(=O)N[C@@H](Cc1ccccc1)[C@H](O)CN1CC[C@@H](OCc2ccncc2)C[C@H]1C(=O)NC(C)(C)C | - | 33 µM
CCCCCCCCCCCCSCC(COP(=O)([O-])OCC[N+](C)(C)C)OCCCCCCCCO | trypan blue | >100 µM
O=c1[nH]cnc2c1ncn2[C@@H]1CC[C@H](CO)O1 | - | >100 µM

For reference, 8 entries again:

CC(C)OC(=O)CCc1ccccc1O[P@](=O)(N[C@@H](C)C(=O)OC(C)C)OC[C@H]1O[C@@H](n2cnc3c(N)nc(N)nc32)[C@](C)(O)[C@@H]1O ; value: >100 µM
Cc1cn([C@H]2C[C@H](N=[N+]=[N-])[C@@H](CO)O2)c(=O)[nH]c1=O ; value: >100 µM
Cc1cc2c(C(C)C)c(O)c(O)cc2c(O)c1-c1c(C)cc2c(C(C)C)c(O)c(O)cc2c1O ; value: >100 µM
Nc1nc(=O)n([C@H]2C=C[C@@H](CO)O2)cc1F ; value: >100 µM
NC(=O)CCNC(=O)c1ccccc1SC(=O)c1cccnc1 ; read by: XTT ; value: 56.3 µM
O=c1[nH]c(=O)n([C@@H]2O[C@H](CO)[C@@H](O)[C@@H]2F)cc1C12B3B4B5B6B(B3B1B42)B1B5C61 ; value: ≥100 µM
Cc1cn([C@H]2C[C@H](N=[N+]=[N-])[C@@H](CO)O2)c(=O)[nH]c1=O ; read by: trypan blue ; value: >100 µM
Cc1cn([C@H]2C[C@@H](CO)[C@@H](CO)O2)c(=O)[nH]c1=O ; read by: trypan blue ; value: >100 µM

Neighbouring rows are from separate reports. Blank or dashed fields: not listed here.